Laboratory results from patent US6307080A, “Water-soluble zinc pyruvates or their hydrates, method for the product ion thereof and their use” (SKW Trostberg Aktiengesellschaft, priority 1998, dated 2001).

System: influenza A and B viruses / MDCK cells

Question: Which results are given for zinc pyruvate?
Answer: in vitro selectivity ratio: very high; therapeutic index (dog, mdck): 2000
